# Results as given in patent publication US9422333B2, “HCV protease inhibitors and uses thereof” (Celgene Avilomics Research, Inc., priority 2008, dated 2016).
# Assays:
# Test in all cases: HCV protease FRET assay for WT and mutated NS3/4A 1b enzymes (IC50_APP)
# Type in all cases: biochemical
# Conditions in all cases: no pre-incubation, read-out: IC50_APP (apparent IC50)
# [1] = target: HCV NS3/4A 1b protease A156S mutant (Hepatitis C virus genotype 1b (isolate BK) (HCV), UniProt P26663, A1182S)
# [2] = target: HCV NS3/4A 1b protease A156T mutant (Hepatitis C virus genotype 1b, UniProt P26663, A1182T)
# [3] = target: HCV NS3/4A 1b protease D168A mutant (Hepatitis C virus genotype 1b (isolate BK) (HCV), UniProt P26663, D1194A)
compound,measurement,setting,value
"C=CC(=O)NC[C@H](NC(=O)[C@@H](NC(=O)c1cnccn1)C1CCCCC1)C(=O)N1C[C@@H]2CCC[C@@H]2[C@H]1C(=O)N[C@@H](CCC)C(OC(=O)C(F)(F)F)C(=O)NC1CC1 (stereo in doubt) [Compound I-23, (S)-3-((1S,3aR,6aS)-2-((S)-3-acrylamido-2-((S)-2-cyclohexyl-2-(pyrazine-2-carboxamido)acetamido)propanoyl)octahydrocyclopenta[c]pyrrole-1-carboxamido)-1-(cyclopropylamino)-1-oxohexan-2-yl 2,2,2-trifluoroacetate]",IC50,[1],0.412 µM
same,IC50,[2],0.985 µM
same,IC50,[3],0.508 µM
